Measurements taken from publication PMC10480232 (Scientific Reports, 2023).

Target: T1, MERS-CoV spike heptad repeat 1 peptide, biotinylated (MERS-CoV, biotin (position not given))
T1 chain: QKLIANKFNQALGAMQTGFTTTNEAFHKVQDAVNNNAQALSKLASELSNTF
Assay: BLI

## VGRFRRLRKKTRKRLKKIGKVLKWIPPIVGSIPLGSG [Yongshi (pSer), C36S derivative of the wild boar cathelicidin peptide PMAP-36R]
  Kd: 38.8 µM
